# Record: PubChem BioAssay AID1259414 (Drosophila RNAi Screening Center, 2018)
# Screen: 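Fly genes that alter Wolbachia amount inside host cells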 (primary screen)
# Cell system: Drosophila JW18 cells infected with Wolbachia
# Reagent: long dsRNA against Drosophila genes, 0.25 µg dsRNA per well of a 384-well plate
# Duration: 5 days
# Conditions: cells persistently infected with Wolbachia before knock-down; no added drug
# Measurement: 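Automated imaging of bacterial rRNA staining divided by host cell count, reported as plate-normalised robust z-score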
# Direction: Wolbachia per cell robust z: higher = more Wolbachia per host cell than the plate typical
# Rule for the call: 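Hit when robust z is 1.5 or more, or -1.5 or less, in at least two of three replicates; excludes dsRNAs with several or no targets, genes not expressed in JW18 and well A1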
# The deposit covers about 24,000 reagents; this is an unselected part of those with a known target gene and a result. Over the whole deposit, about 1,210 (5%) got an active call. 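Inactive calls also include excluded dsRNAs with several or no targets, genes unexpressed in JW18, and well A1, regardless of score.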 Entries without a mark were called inactive.
Target gene,amplicon,"Wolbachia per cell robust z, rep 1","Wolbachia per cell robust z, rep 2","Wolbachia per cell robust z, rep 3"
CG31213,DRSC14312,-0.236,0.288,0.183
CG31213,DRSC15647,-0.394,0.961,0.158
CG14589,DRSC04866,0.547,0.534,-4.61
CG32196,DRSC09548,-0.0435,0.574,-2.14
Cdlc2,DRSC00743,0.509,0.716,-0.45
Cdlc2,DRSC24865,1.14,0.437,0.746
gukh,DRSC14768,-0.0276,-3.25,-0.393
gukh,DRSC15806,0.474,-0.184,-0.44
gukh,DRSC15944,0.554,-1.25,4.06

5 entries from above, limited to “Wolbachia per cell robust z, rep 2”:
CG32196 [DRSC09548] = 0.574
Cdlc2 [DRSC00743] = 0.716
Cdlc2 [DRSC24865] = 0.437
gukh [DRSC14768] = -3.25
gukh [DRSC15806] = -0.184

Continued:
Target gene,amplicon,"Wolbachia per cell robust z, rep 1","Wolbachia per cell robust z, rep 2","Wolbachia per cell robust z, rep 3"
Usp2,DRSC20590,0.895,0.914,-0.791
Usp2,DRSC20632,1.22,-0.461,0.883
Usp2,DRSC20633,0.121,-0.136,0.616
Usp2,DRSC27066,0.508,0.543,0.729
Uhg8,DRSC40579,-1.99,1.09,0.977
CG9313,DRSC04540,0.77,-0.158,0.639
CG9313,DRSC27041,0.219,0.628,-10.2
CG9886,DRSC00732,-0.15,0.693,-1.03
CG9886,DRSC26380,-0.354,0.99,-0.542
CG9886,DRSC41580,0.253,-2.83,-1.75
Maf1,DRSC37750,0.966,1.15,0.675
Maf1,DRSC38594,1.1,2.69,0.664
CG8960,DRSC08612,-0.253,-0.301,0.382
CG8960,DRSC27132,-4.04,1.14,0.732
CG5440,DRSC00685,0.435,0.329,-0.0254
CG5440,DRSC29429,-1.43,-0.27,-1.87
Mical,DRSC14349,1.34,-2.43,1.2
Mical,DRSC14351,0.23,-0.907,-6.22
Mical,DRSC15365,0.904,1.08,0.253
Mical,DRSC15366,-0.153,-0.0049,0.335
